Anti-infective test results gathered from many reports (values: NIAID ChemDB through PubChem).

All rows: tests in culture; agent: Candida albicans; read-out: MIC

Two numbers with a dash give a range or band.

{"compound": "CCCCOc1ccc(C(=O)O)c(OC)c1", "strain": "Clinical isolates", "result": "125–250 µg/mL"}
{"compound": "CCc1ccc(C(=O)Nc2cc([N+](=O)[O-])ccc2O)cc1", "strain": "ATCC 10231", "result": "7.8 µg/mL"}
{"compound": "CC(=O)N1CCN(c2ccc(OC[C@H]3CO[C@](Cn4ccnc4)(c4ccc(Cl)cc4Cl)O3)cc2)CC1", "result": "12.5 µg/mL"}
{"compound": "O=C(Nc1ccc([N+](=O)[O-])cc1O)c1ccc(Br)cc1", "strain": "ATCC 10231", "result": "7.8 µg/mL"}
{"compound": "C[C@@H](n1cnc2ncccc2c1=O)[C@](O)(Cn1cncn1)c1ccc(F)cc1F", "strain": "406 strains", "result": "5 µg/mL"}
{"compound": "Cc1ccc(NC(=O)c2ncccc2O)cc1", "strain": "ATCC 44859", "result": "125 µM"}
{"compound": "COC(=O)c1ccc2c(c1)nc(-c1ccc(OCc3ccccc3)c(OCc3ccccc3)c1)n2Cc1ccccc1", "result": "100 µg/mL"}
{"compound": "CCCCCOc1ccc(C(=O)NN)c(O)c1", "strain": "Clinical isolates", "result": "125–250 µg/mL"}
{"compound": "C[C@@H](n1cnc2cc(C(N)=O)ccc2c1=O)[C@](O)(Cn1cncn1)c1ccc(F)cc1F", "strain": "406 strains", "result": "5 µg/mL"}
{"compound": "CCC(C)CC(C)CCCCCCCCC(=O)N[C@H]1C[C@@H](O)[C@H](NCCN)NC(=O)[C@@H]2[C@@H](O)CCN2C(=O)[C@H]([C@H](O)CCN)NC(=O)[C@H]([C@H](O)[C@@H](O)c2ccc(O)cc2)NC(=O)[C@@H]2C[C@@H](O)CN2C(=O)[C@H]([C@@H](C)O)NC1=O", "strain": "40 isolates azole-susceptible", "result": "0.4 µg/mL"}
{"compound": "CC(n1ccnn1)C(O)(Cn1cncn1)c1ccc(Cl)cc1", "strain": "TA", "result": ">100 µg/mL"}
{"compound": "O=C(Nc1ccc(Br)cc1)c1ccccc1O", "strain": "ATCC 44859", "result": "62.5 µM"}
{"compound": "C[C@@H](n1cnc2cc(Cl)ccc2c1=O)[C@](O)(Cn1cncn1)c1ccccc1F", "strain": "76 strains", "result": "5 µg/mL"}
{"compound": "O=C(Nc1ccc(F)cc1)c1ccccc1O", "strain": "ATCC 44859", "result": "125 µM"}
{"compound": "CCCOc1ccc(C(=O)O)c(O)c1", "strain": "Clinical isolates", "result": "125–250 µg/mL"}
{"compound": "Cc1ccc(CC(=O)Nc2ccc(N)cc2O)cc1", "strain": "Isolates", "result": "250 µg/mL"}
{"compound": "CC(C)Oc1cc(O)cc(C(=O)O)c1", "strain": "Clinical isolates", "result": "125–250 µg/mL"}
{"compound": "O[C@](Cn1cncn1)(Cn1cnc(/C=C/c2ccc(OCC(F)(F)C(F)F)cc2)n1)c1ccc(F)cc1F", "strain": "CA033", "result": "1.8 µM"}
{"compound": "Nc1ccc(NC(=O)c2ccc(Br)cc2)c(O)c1", "strain": "ATCC 10231", "result": "125 µg/mL"}
{"compound": "Cc1ccc(C(C)C)cc1", "strain": "ATCC 10231", "result": "0.16–0.32 µg/mL"}
{"compound": "CC(C)[C@@H](NC(=O)N[C@@H](CCCN=C(N)N)CC(N)=O)NC(=O)[C@H]1CCCC[C@@H]1N", "strain": "SC5314", "method": "XTT / broth dilution", "result": "8 µg/mL"}
{"compound": "C[C@@H](n1cnc2cc(NC(=O)C(F)(F)F)c(F)cc2c1=O)[C@](O)(Cn1cncn1)c1ccc(F)cc1F", "strain": "60 strains", "result": "2.5 µg/mL"}
{"compound": "C[C@@H](c1ncncc1F)[C@](O)(Cn1cncn1)c1ccc(F)cc1F", "strain": "572-27", "result": "8 µg/mL"}
{"compound": "C[C@@H](n1ccnn1)[C@](O)(Cn1cncn1)c1ccc(F)cc1", "strain": "TA", "result": ">100 µg/mL"}
{"compound": "C[C@@H](n1cnc2cc(N)c(F)cc2c1=O)[C@](O)(Cn1cncn1)c1ccc(F)cc1F", "strain": "406 strains", "result": "5 µg/mL"}
{"compound": "O=C(Nc1cccc(F)c1)c1ccccc1O", "strain": "ATCC 44859", "result": "125 µM"}
{"compound": "COC(=O)c1ccc2nc(-c3ccc(OC)cc3)[nH]c2c1", "result": "50 µg/mL"}
{"compound": "CC(n1cnnn1)C(O)(Cn1cncn1)c1ccc(F)cc1", "strain": "TA", "result": ">100 µg/mL"}
{"compound": "CC[C@H](NC(=O)C[C@@H](NC(=O)C[C@H](CCCN=C(N)N)NC(=O)N[C@H](CC)NC(=O)C[C@@H](NC(=O)C[C@H](CCCN=C(N)N)NC(=O)N[C@H](CC)NC(=O)C[C@@H](NC(=O)C[C@@H](N)Cc1ccc(O)cc1)C(C)C)C(C)C)C(C)C)NC(=O)N[C@@H](CCCN=C(N)N)CC(N)=O", "strain": "SC5314", "method": "XTT / broth dilution", "result": "128 µg/mL"}
{"compound": "C[C@@H](n1cnc2cc(OCC(F)(F)C(F)F)ccc2c1=O)[C@](O)(Cn1cncn1)c1ccc(F)cc1F", "strain": "406 strains", "result": "≤0.03 µg/mL"}
{"compound": "Cc1ccc(NC(=O)c2ccccc2O)cc1", "strain": "ATCC 44859", "result": "62.5 µM"}
{"compound": "NNC(=O)c1cc(O)ccc1O", "strain": "Clinical isolates", "result": "125–250 µg/mL"}
{"compound": "O=C(Nc1ccc(Cl)cc1)c1ncccc1S", "strain": "ATCC 44859", "result": "125 µM"}
{"compound": "CC(n1nccn1)C(O)(Cn1cncn1)c1ccccc1F", "strain": "TA", "result": ">100 µg/mL"}
{"compound": "O=C(Nc1ccc(Cl)cc1)c1ccccc1O", "strain": "ATCC 44859", "result": "15.63 µM"}
{"compound": "COC(=O)c1ccc2nc(-c3ccc(Cl)cc3Cl)[nH]c2c1", "result": "50 µg/mL"}
{"compound": "CC(C)[C@@H](NC(=O)N[C@@H](CCCCN)CC(N)=O)NC(=O)[C@H]1CCCC[C@@H]1NC(=O)C[C@H](CCCCN)NC(=O)N[C@@H](NC(=O)[C@H]1CCCC[C@@H]1NC(=O)C[C@H](CCCCN)NC(=O)N[C@@H](NC(=O)[C@H]1CCCC[C@@H]1NC(=O)C[C@@H](N)Cc1ccc(O)cc1)C(C)C)C(C)C", "strain": "SC5314", "method": "XTT / broth dilution", "result": "8 µg/mL"}

The last 5 rows once more:

{"compound": "O=C(Nc1ccc(Cl)cc1)c1ncccc1S", "strain": "ATCC 44859", "result": "125 µM"}
{"compound": "CC(n1nccn1)C(O)(Cn1cncn1)c1ccccc1F", "strain": "TA", "result": ">100 µg/mL"}
{"compound": "O=C(Nc1ccc(Cl)cc1)c1ccccc1O", "strain": "ATCC 44859", "result": "15.63 µM"}
{"compound": "COC(=O)c1ccc2nc(-c3ccc(Cl)cc3Cl)[nH]c2c1", "result": "50 µg/mL"}
{"compound": "CC(C)[C@@H](NC(=O)N[C@@H](CCCCN)CC(N)=O)NC(=O)[C@H]1CCCC[C@@H]1NC(=O)C[C@H](CCCCN)NC(=O)N[C@@H](NC(=O)[C@H]1CCCC[C@@H]1NC(=O)C[C@H](CCCCN)NC(=O)N[C@@H](NC(=O)[C@H]1CCCC[C@@H]1NC(=O)C[C@@H](N)Cc1ccc(O)cc1)C(C)C)C(C)C", "strain": "SC5314", "method": "XTT / broth dilution", "result": "8 µg/mL"}

Conditions beyond the fields shown may differ between rows.